Results of unrelated studies side by side (data: NIAID ChemDB).

Shared fields: whole-cell or culture tests; species: HIV-1; read-out: EC50

ECn is the concentration giving n% inhibition of infection, replication or growth.

smiles	strain or isolate	changes	cell line	method	setting	value
O=C(C(=O)N1CCN(C(=O)c2ccno2)CC1)c1c[nH]c2cccc(F)c12			HeLa + HELA CD4+/CCR5	luciferase		<10 µM
CC(C)C1=C2[C@H]3CC[C@@H]4[C@@]5(C)CC[C@H](OC(=O)[C@H]6C[C@@H](C(=O)O)C6(C)C)C(C)(C)[C@@H]5CC[C@@]4(C)[C@]3(C)CC[C@@]2([C@@H](O)CNC(=O)C2(NC(=O)c3ccc(Cl)cc3)CCCC2)CC1=O	92HT599		MT-2	p24 / ELISA		<1 µM
CCC(=O)c1ccc(F)c([C@@H]2C[C@@H]2NC(=O)Nc2ccc(C#N)cn2)c1O	LAI	NNRTI-resistant (RT Y181C)	TZM-bl	β-galactosidase / luminescence		0.0102 µM
Cc1cc(OCCOc2ccc(-c3cnc(C)c([C@H](OC(C)(C)C)C(=O)O)c3N3CCC(C)(C)CC3)cn2)ccc1F	NL4-3		MT-2	luminescence		0.0054 µM
C[C@@H]1CCO[C@H]2Cn3cc(C(=O)NCc4ccc(F)cc4F)c(=O)c(O)c3C(=O)N12	NL4-3	M50I/R263K	CBMC	RT activity		0.0023 µM
COCCNC(=O)c1c(COC)nc(Nc2ccc(C#N)cc2)nc1Nc1c(C)cc(/C=C/C#N)cc1C	MDR		MT4 CMV-EGFP			0.000363 µM
CC(C)C1=C2[C@H]3CC[C@@H]4[C@@]5(C)CC[C@H](OC(=O)[C@H]6C[C@@H](C(=O)O)C6(C)C)C(C)(C)[C@@H]5CC[C@@]4(C)[C@]3(C)CC[C@@]2(CCNCC(C)(C)NC(=O)c2ccc(O[C@@H]3CCOC3)cc2)CC1=O	92HT599		MT-2	p24 / ELISA		<1 µM
Cc1ccc(OCCN(C)c2ccc(-c3cnc(C)c([C@H](OC(C)(C)C)C(=O)O)c3N3CCC(C)(C)CC3)cn2)c(C)c1	NL4-3		MT-2	luminescence		0.004 µM
CC(C)C1=C2[C@H]3CC[C@@H]4[C@@]5(C)CC[C@H](OC(=O)[C@H]6C[C@@H](C(=O)O)C6(C)C)C(C)(C)[C@@H]5CC[C@@]4(C)[C@]3(C)CC[C@@]2(CC(=O)NCC(C)(C)NC(=O)c2ccccc2Cl)CC1=O	92HT599		MT-2	p24 / ELISA		<1 µM
Cc1cc(C#N)cc(C(=O)c2cc(Cl)ccc2OCC(=O)Nc2cnc(S(N)(=O)=O)cc2C)c1	WTRVA		HeLa + HELA CD4+	β-galactosidase		<0.01 µM
Cc1ccc(OCCN(C)c2ccc(-c3cnc(C)c([C@H](OC(C)(C)C)C(=O)O)c3N3CCC(C)(C)CC3)nc2)c(C)c1	NL4-3		MT-2	luminescence		0.0025 µM
Cc1cc(C#N)cc(C(=O)c2cc(Cl)ccc2OCC(=O)Nc2ccc(S(N)(=O)=O)cc2C)c1	WTRVA		HeLa + HELA CD4+	β-galactosidase		<0.01 µM
COCCNC(=O)c1c(COC)nc(Nc2ccc(C#N)cc2)nc1Oc1c(C)cc(/C=C/C#N)cc1C	K103N + Y181C		MT4 CMV-EGFP			0.0692 µM
O=C(O)c1cc(-n2cccc2)ccc1Cl	92UG092 X4 CLADE A		PBMC/5.25M7	luciferase / cell fusion		9.94 µM
CC(C)(C)OC(=O)Nc1cccc(C(=O)N2CCN(C(=O)C(=O)c3c[nH]c4cccc(F)c34)CC2)c1			HeLa + HELA CD4+/CCR5	luciferase		<10 µM
CC(C)C1=C2[C@H]3CC[C@@H]4[C@@]5(C)CC[C@H](OC(=O)[C@H]6C[C@@H](C(=O)O)C6(C)C)C(C)(C)[C@@H]5CC[C@@]4(C)[C@]3(C)CC[C@@]2(CCNC(=O)c2ccc3ccccc3n2)CC1=O	92HT599		MT-2	p24 / ELISA		<1 µM
COCc1nc(Nc2ccc(C#N)cc2)nc(Nc2c(C)cc(/C=C/C#N)cc2C)c1C(=O)N1CCC(O)CC1	IIIB		MT4 CMV-EGFP			0.00617 µM
CCCc1cc(=O)oc2c3c(c4c(c12)OC(C)(C)CC4)O[C@@H](C)[C@H](C)[C@@H]3O	NL4-3(RT-4XAZT)	RT-D67N K70R T215Y K219Q	CEM + CEM-SS	XTT		0.3 µM
Cc1cc(S(N)(=O)=O)ccc1NC(=O)COc1ccc(Cl)cc1C(=O)c1cc(Cl)cc(C#N)c1	WTRVA		HeLa + HELA CD4+	β-galactosidase		<0.01 µM
CC(C)=CCOc1cc(NC(=S)c2ccoc2C)ccc1Cl	NL4-3	RT-V106I	CEM + CEM-SS	p24		0.1 µM
O=C(C(=O)N1CCN(C(=O)c2occ(Cl)c2Cl)CC1)c1c[nH]c2c(F)ccc(F)c12			HeLa + HELA CD4+/CCR5	luciferase		<10 µM
Cc1cc2cn[nH]c2cc1NC(=O)COc1ccc(Cl)cc1C(=O)c1cccc(C#N)c1	HXB2	RT-V106I Y181C	HeLa + HELA CD4+	β-galactosidase		0.011–0.1 µM
O=C(C(=O)N1CCN(C(=O)c2ccc(Br)cc2S)CC1)c1c[nH]c2cccc(Cl)c12			HeLa + HELA CD4+/CCR5	luciferase		<10 µM
CC(=O)c1c(C)nc(-c2ccccc2)nc1NC(=O)c1ccccc1	N119		HeLa	GFP / fluorescence		>50 µM
COCc1nc(Nc2ccc(C#N)cc2)nc(Nc2c(C)cc(/C=C/C#N)cc2C)c1C(=O)N(C)CCN(C)C	K103N+Y101C		MT4 CMV-EGFP			0.525 µM
Cc1ccc(C(=O)NC(C)(C)C(=O)NC[C@H](O)[C@@]23CC[C@]4(C)[C@H](CC[C@@H]5[C@@]6(C)CC[C@H](OC(=O)[C@H]7C[C@@H](C(=O)O)C7(C)C)C(C)(C)[C@@H]6CC[C@]54C)C2=C(C(C)C)C(=O)C3)cc1	92HT599		MT-2	p24 / ELISA		<1 µM
C[C@@H]1CN(C(=O)c2ccccn2)CCN1C(=O)C(=O)c1c[nH]c2c(C#N)cccc12			HeLa + HELA CD4+/CCR5	luciferase		<10 µM
CC(C)C1=C2[C@H]3CC[C@@H]4[C@@]5(C)CC[C@H](OC(=O)[C@H]6C[C@@H](C(=O)O)C6(C)C)C(C)(C)[C@@H]5CC[C@@]4(C)[C@]3(C)CC[C@@]2([C@@H](O)CNCC(C)(C)NC(=O)c2ccc(Cl)cc2OCCN2CCS(=O)(=O)CC2)CC1=O	92HT599		MT-2	p24 / ELISA		<1 µM
Cc1cc(S(N)(=O)=O)ccc1NC(=O)COc1ccc(Cl)cc1C(=O)c1cccc(C#N)n1	HXB2	RT-G190A	HeLa + HELA CD4+	β-galactosidase		<0.01 µM
Cc1cc(S(N)(=O)=O)ccc1NC(=O)COc1ccc(Cl)cc1C(=O)c1cc(F)cc(C(F)(F)F)c1	HXB2		HELA MAGI	β-galactosidase	25% human serum	7.7 µM
N#CC1=CC2Nc3ccccc3C2N(c2ccc([N+](=O)[O-])cc2)C1=O	14AG		HeLa	GFP / fluorescence		0.2 µM
CC(C)=CCOc1cc(NC(=S)c2ccoc2C)ccc1Cl	Diphenyl sulfone-resistant (RT-Y181C)	RT-Y181C	CEM + CEM-SS	cytopathic effect / XTT		0.9 µM
C[C@@H]1CN(C(=O)c2ccccn2)CCN1C(=O)C(=O)c1c[nH]c2ccc(F)cc12			HeLa + HELA CD4+/CCR5	luciferase		<10 µM
Cc1cccc(Cl)c1OCCNc1ccc(-c2cnc(C)c([C@H](OC(C)(C)C)C(=O)O)c2N2CCC(C)(C)CC2)nc1	NL4-3		MT-2	luminescence		0.0016 µM
O=C(C(=O)N1CCN(C(=O)c2ccc(Cl)o2)CC1)c1c[nH]c2cccc(F)c12			HeLa + HELA CD4+/CCR5	luciferase		<10 µM
COCc1nc(Nc2ccc(C#N)cc2)nc(Nc2c(C)cc(/C=C(\C)C#N)cc2C)c1C(=O)NCc1ccncc1	K103N + Y181C		MT4 CMV-EGFP			0.02 µM
Cc1ncc(-c2ccc(N(C)CCOc3cc(F)cc(F)c3)cn2)c(N2CCC(C)(C)CC2)c1[C@H](OC(C)(C)C)C(=O)O	NL4-3		MT-2	luminescence		0.01 µM
CC(C)=CCOc1cc(NC(=S)c2ccsc2C)ccc1Cl	4XAZT+L100I		CEM + CEM-SS	cytopathic effect / XTT		0.01 µM
CC(C)C1=C2[C@H]3CC[C@@H]4[C@@]5(C)CC[C@H](OC(=O)[C@H]6C[C@@H](C(=O)O)C6(C)C)C(C)(C)[C@@H]5CC[C@@]4(C)[C@]3(C)CC[C@@]2(CCNCC(C)(C)NC(=O)c2ccncn2)CC1=O	92HT599		MT-2	p24 / ELISA		<1 µM
CCCCO[C@H](C(=O)O)c1c(C)ncc(-c2ccc(OCC3CC3)cn2)c1N1CCC(C)(C)CC1	NL4-3		MT-2	luminescence		0.0316 µM
COCc1nc(Nc2ccc(C#N)cc2)nc(Nc2c(C)cc(/C=C/C#N)cc2C)c1C(=O)NCCN(C)C	K103N+Y101C		MT4 CMV-EGFP			0.0851 µM
CC(C)C1=C2[C@H]3CC[C@@H]4[C@@]5(C)CC[C@H](OC(=O)[C@H]6C[C@@H](C(=O)O)C6(C)C)C(C)(C)[C@@H]5CC[C@@]4(C)[C@]3(C)CC[C@@]2([C@@H](O)CNCCN2CCCCC2)CC1=O	92HT599		MT-2	p24 / ELISA		<1 µM
COc1cc(-c2ccc(N=Nc3ccc4c(S(=O)(=O)O)cc(S(=O)(=O)O)c(N)c4c3O)c(OC)c2)ccc1N=Nc1ccc2c(S(=O)(=O)O)cc(S(=O)(=O)O)c(N)c2c1O	G		CEM + CEM-SS	cytopathic effect / XTT		0.6 µM
CC(C)C1=C2[C@H]3CC[C@@H]4[C@@]5(C)CC[C@H](OC(=O)[C@H]6C[C@@H](C(=O)O)C6(C)C)C(C)(C)[C@@H]5CC[C@@]4(C)[C@]3(C)CC[C@@]2([C@@H](O)CNC(=O)C(C)(C)NC(=O)c2ccc(Cl)cc2OCCN(C)C)CC1=O	92HT599		MT-2	p24 / ELISA		<1 µM
COCc1nc(Nc2ccc(C#N)cc2)nc(Nc2c(C)cc(/C=C/C#N)cc2C)c1C(=O)NCCc1ccc(S(N)(=O)=O)cc1	L1001+K103N		MT4 CMV-EGFP			0.0977 µM
Cc1cc(S(N)(=O)=O)ccc1NC(=O)COc1ccc(Cl)cc1C(=O)c1cc(F)cc(F)c1	HXB2	RT-P236L	HeLa + HELA CD4+	β-galactosidase		0.011–0.1 µM
C[C@@H]1CN(C(=O)c2ccccc2)CCN1C(=O)C(=O)c1c[nH]c2c(C(=O)O)cccc12			HeLa + HELA CD4+/CCR5	luciferase		<10 µM
Cc1cc(C#N)cc(C(=O)c2cc(Cl)ccc2OCC(=O)Nc2ccc(OCCCN3CC=CC3)cc2C)c1	HXB2	RT-V108I Y181C	HeLa + HELA CD4+	β-galactosidase		<0.01 µM
CCCCO[C@H](C(=O)O)c1c(C)ncc(-c2ccc(N(C)CCOc3ccc(F)cc3Cl)cn2)c1N1CCC(C)(C)CC1	NL4-3		MT-2	luminescence		0.0159 µM

The last 3 rows once more:

| smiles | strain or isolate | changes | cell line | method | setting | value |
|---|---|---|---|---|---|---|
| C[C@@H]1CN(C(=O)c2ccccc2)CCN1C(=O)C(=O)c1c[nH]c2c(C(=O)O)cccc12 |  |  | HeLa + HELA CD4+/CCR5 | luciferase |  | <10 µM |
| Cc1cc(C#N)cc(C(=O)c2cc(Cl)ccc2OCC(=O)Nc2ccc(OCCCN3CC=CC3)cc2C)c1 | HXB2 | RT-V108I Y181C | HeLa + HELA CD4+ | β-galactosidase |  | <0.01 µM |
| CCCCO[C@H](C(=O)O)c1c(C)ncc(-c2ccc(N(C)CCOc3ccc(F)cc3Cl)cn2)c1N1CCC(C)(C)CC1 | NL4-3 |  | MT-2 | luminescence |  | 0.0159 µM |

a–b is a range or a potency band. An empty or dashed field is not shown. Conditions beyond the fields shown may differ between rows.